Assay results taken from PMC4488513.
The exact form of at least one protein or probe is not confirmed. For part of these data: At least one verdict rests on a figure or table, not on a statement of the authors.

Experiments:
Assay in all cases: EMSA
[1] = molecular target: rCmeR-R C69S,C166S,P183R (Campylobacter jejuni (mutation of isolate CT9:7)) (UniProt Q7B8P6); conditions: 60-180 ng protein, similar to rCmeRSS; recombinant protein; residues 1-210; protein details: N-terminal 6xHis (pQE30); label: DIG-11-ddUTP 3' end; probe letters rebuilt from the primers and the genome
[2] = molecular target: rCmeRSS C69S,C166S (Campylobacter jejuni) (UniProt Q7B8P6); conditions: 60-180 ng protein, 0.05 pmol probe; recombinant protein; residues 1-210; protein details: N-terminal 6xHis (pQE30); label: DIG-11-ddUTP 3' end; probe letters rebuilt from the primers and the genome
[3] = molecular target: rCmeR-IK C69S,C166S,T6I,E159K (Campylobacter jejuni (mutations of isolate M63885)) (UniProt Q7B8P6); conditions: 60-180 ng protein, similar to rCmeRSS; recombinant protein; residues 1-210; protein details: N-terminal 6xHis (pQE30); label: DIG-11-ddUTP 3' end; probe letters rebuilt from the primers and the genome

Measured: binding result

GCACAACACCTAAAGCTAAAATAGTATTTTTTTGAAATAATTTCATGGTTTTGCCTTGAAAAATTAAATTAAAAATTGTAATTTTTATTACAAAAATTTTTGGCTAATTATATCTTAATTTTGGTTAATAAAATTATTTTTTAAGCTTTGGAGCTATTGATTCCATTTAG (double strand) [11168 cmeABC promoter]
binds: all assays above
